Anti-infective test results gathered from many reports (values: NIAID ChemDB through PubChem).

Shared fields: toxicity to cultured cells; cells: MT-4; read-out: CC50

CCn is the concentration with n% toxicity to the cells. Conditions beyond the fields shown may differ between rows.

{"compound": "Cc1ccc(S(=O)(=O)N2CCCN(Cc3ccccc3)CCCN(S(=O)(=O)c3ccc(C)cc3)CCC2)cc1", "read by": "trypan blue / propidium iodide", "result": "38 µM"}
{"compound": "C(=N\\Nc1nc(-c2ccccc2)cs1)/c1ccccn1", "read by": "MTT", "result": "2.97 µM"}
{"compound": "C=C1CN(S(=O)(=O)c2ccc(C)cc2)CCCN(CCC(C)C)CCCN(S(=O)(=O)c2ccc(C)cc2)C1", "read by": "trypan blue / propidium iodide", "result": "32.5 µM"}
{"compound": "O=C(c1ccccc1)n1c(=O)ccn([C@@H]2C=CC3(CC2)O[C@H](c2ccccc2)[C@@H](c2ccccc2)O3)c1=O", "read by": "MTT", "result": ">25 µg/mL"}
{"compound": "C/C(=N\\Nc1nc(-c2ccc([N+](=O)[O-])cc2)cs1)c1ccc(-c2ccc(Br)cc2)cc1", "read by": "MTT", "result": "66.15 µM"}
{"compound": "N#C/C(=C\\c1cc(F)cc(F)c1)n1nnc2ccccc21", "result": "2 µM"}
{"compound": "O=C1CC(c2ccc([N+](=O)[O-])cc2)n2nc(-c3ccncc3)nc2N1", "read by": "visual reading", "result": ">100 µg/mL"}
{"compound": "CCCCCCCCCCCCCCCCCCOC(=O)Oc1c2n(cc(C(=O)NCc3ccc(F)cc3F)c1=O)[C@@H]1CN(C2=O)[C@@H](C)CC[C@]12CC(OC)=NO2", "read by": "luminescence", "result": "50 µM"}
{"compound": "Clc1ncnc2ncn([C@@H]3C=CC4(CC3)O[C@H](c3ccccc3)[C@@H](c3ccccc3)O4)c12", "read by": "MTT", "result": "2.4 µg/mL"}
{"compound": "CCCCCCCCCCCCCCCCCCOC(=O)OCOc1c2n(cc(C(=O)NCc3ccc(F)cc3F)c1=O)[C@@H]1CN(C2=O)[C@@H](C)CC[C@]12CC(C)=NO2", "read by": "luminescence", "result": "50 µM"}
{"compound": "O=C1CC(c2ccc([N+](=O)[O-])cc2)n2nc(-c3cccnc3)nc2N1", "read by": "visual reading", "result": ">100 µg/mL"}
{"compound": "CC(C)c1c(C(=O)c2cc(F)cc(F)c2)n(Cc2ccccn2)c(=O)[nH]c1=O", "read by": "MTT", "result": "49.87 µg/mL"}
{"compound": "COC[C@@H](C)OC(=O)OCOc1c2n(cc(C(=O)NCc3ccc(F)cc3F)c1=O)[C@@H]1CN(C2=O)[C@@H](C)CC[C@]12CC(OC)=NO2", "read by": "luminescence", "result": "50 µM"}
{"compound": "O=C(NCCO)c1[nH]c2ccc(Cl)cc2c1S(=O)(=O)c1ccccc1", "read by": "MTT", "result": ">100 µM"}
{"compound": "CCOCn1c2c(c(=O)[nH]c1=O)CCC2c1ccccc1", "read by": "MTT", "result": ">100 µM"}
{"compound": "N#C/C(=C/c1ccccc1Cl)n1nnc2ccccc21", "result": "2 µM"}
{"compound": "CCCCCCCCCCCC(=O)OCOc1c2n(cc(C(=O)NCc3ccc(F)cc3F)c1=O)[C@@H]1CN(C2=O)[C@@H](C)CC[C@]12CC(OC)=NO2", "read by": "luminescence", "result": "50 µM"}
{"compound": "Cc1cc(C(=O)c2c(C(C)C)c(=O)[nH]c(=O)n2Cc2ccncc2)cc([N+](=O)[O-])c1", "read by": "MTT", "result": "46 µg/mL"}
{"compound": "N#C/C(=C\\c1ccco1)n1nnc2ccccc21", "result": "89 µM"}
{"compound": "O=C(NNCCO)c1[nH]c2ccc(Cl)cc2c1Sc1ccccc1", "read by": "MTT", "result": "70 µM"}
{"compound": "N#C/C(=C\\c1ccc[nH]1)n1nc2ccccc2n1", "result": ">100 µM"}
{"compound": "CCOC(=O)c1[nH]c2ccccc2c1Cc1ccc(OC)cc1", "read by": "MTT", "result": ">80 µM"}
{"compound": "N#C/C(=C/c1ccccc1Br)n1nnc2ccccc21", "result": "2 µM"}
{"compound": "N#Cc1ccc(Nc2nccc(SC3CCCCC3)n2)cc1", "result": ">403 µM"}
{"compound": "O=C(O)/C(=C\\c1ccccc1)n1nnc2ccccc21", "result": ">100 µM"}
{"compound": "CC(C)OC(=O)c1[nH]c2ccc([N+](=O)[O-])cc2c1COCc1ccc(Cl)cc1", "read by": "MTT", "result": ">80 µM"}
{"compound": "N#Cc1ccc(Nc2nccc(NC3CCCC3)n2)cc1", "result": "9.13 µM"}
{"compound": "Cc1cc(Cl)cc(C(=O)c2c(C(C)C)c(=O)[nH]c(=O)n2Cc2ccncc2)c1", "read by": "MTT", "result": "55.07 µg/mL"}
{"compound": "N#Cc1ccc(-c2csc(N/N=C/c3cccnc3)n2)cc1", "read by": "MTT", "result": "7.73 µM"}
{"compound": "O=C(/C=C/c1ccc(Cl)c(Cl)c1)/C=C/c1ccc(Cl)c(Cl)c1", "read by": "MTT", "result": ">200 µM"}
{"compound": "Nc1ncnc2c1ncn2[C@@H]1C=CC(O)CC1", "read by": "MTT", "result": ">25 µg/mL"}
{"compound": "Clc1ccc(-c2csc(N/N=C/c3ccncc3)n2)cc1", "read by": "MTT", "result": "125 µM"}
{"compound": "Cc1ccc(Sc2c(C(=O)NCCO)[nH]c3ccc(Cl)cc23)cc1", "read by": "MTT", "result": ">100 µM"}
{"compound": "Nc1nc2c(ncn2[C@@H]2O[C@H](CO)[C@@H](F)[C@H]2O)c(=O)[nH]1", "result": "526 µM"}
{"compound": "CCCc1nc2n(n1)C(c1ccc([N+](=O)[O-])cc1)CC(=O)N2", "read by": "visual reading", "result": ">100 µg/mL"}
{"compound": "CCc1c(C(=O)c2cc(C)cc(C)c2)n(Cc2ccncc2)c(=O)[nH]c1=O", "read by": "MTT", "result": "64 µg/mL"}
{"compound": "C=C1CN(S(C)(=O)=O)CCCN(Cc2ccccc2)CCCN(S(C)(=O)=O)C1", "read by": "trypan blue / propidium iodide", "result": ">75 µM"}
{"compound": "O=C1CC(c2ccccc2)n2nc(-c3cccnc3)nc2N1", "read by": "visual reading", "result": ">100 µg/mL"}
{"compound": "Cc1cc(C)cc(S(=O)(=O)c2c(C(=O)NCCO)[nH]c3ccc(Cl)cc23)c1", "read by": "MTT", "result": "85 µM"}
{"compound": "C/C(=N\\Nc1nc(-c2ccc(C#N)cc2)cs1)c1ccc2c(c1)OCO2", "read by": "MTT", "result": "68.28 µM"}
{"compound": "O=c1ccn([C@@H]2C=C[C@H](O)CC2)c(=O)[nH]1", "read by": "MTT", "result": ">25 µg/mL"}
{"compound": "CCCCCOC(=O)OCOc1c2n(cc(C(=O)NCc3ccc(F)cc3F)c1=O)[C@@H]1CN(C2=O)[C@@H](C)CC[C@]12CC(OC)=NO2", "read by": "luminescence", "result": "50 µM"}
{"compound": "C=C1CN(S(=O)(=O)c2ccc(C)cc2)CCCN(C(=O)OCC)CCCN(S(=O)(=O)c2ccc(C)cc2)C1", "read by": "trypan blue / propidium iodide", "result": ">75 µM"}
{"compound": "COc1ccc(/C=C(/C#N)n2nc3ccccc3n2)cc1OC", "result": ">100 µM"}
{"compound": "C=C1CN(S(=O)(=O)c2ccc(C)cc2)CCCN(CC(C)C)CCCN(S(=O)(=O)c2ccc(C)cc2)C1", "read by": "trypan blue / propidium iodide", "result": ">75 µM"}
{"compound": "N#C/C(=C\\c1ccc(C(F)(F)F)cc1)n1nc2ccccc2n1", "result": "3.5 µM"}
{"compound": "Cc1cc(SC2CCCCC2)nc(Nc2ccc(C#N)cc2)n1", "result": ">192 µM"}
{"compound": "C/C(=N\\Nc1nc(-c2ccc(C#N)cc2)cs1)c1ccc(-n2ccnc2)cc1", "read by": "MTT", "result": "73.95 µM"}
{"compound": "COC1=NO[C@@]2(CC[C@H](C)N3C[C@H]2n2cc(C(=O)NCc4ccc(F)cc4F)c(=O)c(OC(=O)CCCCCCCCCCCCCCCCC(=O)O)c2C3=O)C1", "read by": "luminescence", "result": "50 µM"}
{"compound": "O=C1C=C[C@H](n2cnc3c(Cl)ncnc32)CC1", "read by": "MTT", "result": "13.5 µg/mL"}
{"compound": "CC(C)c1c(C(=O)c2cc(F)cc(F)c2)n(Cc2cccnc2)c(=O)[nH]c1=O", "read by": "MTT", "result": "29.81 µg/mL"}
{"compound": "C=C1CN(S(=O)(=O)c2ccc(C)cc2)CCCN(CC2CCCCC2)CCCN(S(=O)(=O)c2ccc(C)cc2)C1", "read by": "trypan blue / propidium iodide", "result": "29.3 µM"}
{"compound": "N#Cc1ccc(Nc2nccc(NC3CCCCC3)n2)cc1", "result": "7.33 µM"}
{"compound": "O=C1/C(=C/c2cc(O)c(O)c(O)c2)CSC/C1=C\\c1cc(O)c(O)c(O)c1", "read by": "MTT", "result": "100 µM"}
{"compound": "Cc1cc(Cl)cc(C(=O)c2c(C(C)C)c(=O)[nH]c(=O)n2Cc2ccnc(C#N)c2)c1", "read by": "MTT", "result": "8.55 µg/mL"}
{"compound": "C/C(=N\\Nc1nc(-c2ccc(C#N)cc2)cs1)c1ccc(Cl)c(Cl)c1", "read by": "MTT", "result": "17.1 µM"}
{"compound": "CCc1c(C(=O)c2cc(C(F)(F)F)cc(C(F)(F)F)c2)n(Cc2ccncc2)c(=O)[nH]c1=O", "read by": "MTT", "result": "52.3 µg/mL"}
{"compound": "O=[N+]([O-])c1ccc(-c2csc(N/N=C/c3ccncc3)n2)cc1", "read by": "MTT", "result": "75.6 µM"}
{"compound": "O=C1/C(=C/c2cc(O)c(O)c(O)c2)CNC/C1=C\\c1cc(O)c(O)c(O)c1", "read by": "MTT", "result": "35 µM"}
{"compound": "Nc1nc2c(ncn2[C@@H]2O[C@H](CO)[C@H](F)[C@H]2O)c(=O)[nH]1", "result": ">490 µM"}
{"compound": "O=C1C(=Cc2cc(O)c(O)c(O)c2)C(=O)c2ccccc21", "read by": "MTT", "result": "19 µM"}
{"compound": "CCOCn1c(Cc2ccccc2)c(C(C)C)c(=O)[nH]c1=O", "read by": "MTT", "result": ">100 µM"}